Experimental data taken from paper PMC12670160, “A drug-repurposing screen of FDA- and EMA-approved drugs identifies two NF-κB inhibitors active against eumycetoma” (Journal of Antimicrobial Chemotherapy, 2025).

Tested on: M. mycetomatis strain mm55
Conditions: primary screen, metabolic activity vs growth control; 96 h, 2 µM; inhibitor

SMILES	% viability
O=[N+]([O-])O[C@H]1CO[C@H]2[C@@H]1OC[C@H]2O[N+](=O)[O-]	111.9%
CN(C(=O)Cc1ccc(Cl)c(Cl)c1)[C@H]1CCCC[C@@H]1N1CCCC1	100.5%
CN(C(=O)Cc1ccc(Cl)c(Cl)c1)[C@H]1CC[C@@]2(CCCO2)C[C@@H]1N1CCCC1	90.5%
